A mixed list of measured activities; the numbers were collected in NIAID ChemDB.

Common to all: tests on isolated targets; agent: HIV-1; target: Integrase; read-out: IC50

Conditions beyond the fields shown may differ between rows. Two numbers with a dash give a range or band. ICn: concentration for n% inhibition.

smiles	read by	result
CN(Cc1cccc(F)c1)C(=O)/C=C(\O)C(=O)O	strand transfer	<70 µM
CC(C)N1CCn2c(nc(C(=O)NCc3ccc(F)cc3)c(O)c2=O)C(N(C)C(=O)C(=O)N(C)C)C1	ELISA	<10 µM
O=C(O)/C(O)=C/C(=O)N(CCOc1ccccc1)Cc1ccc(F)cc1	strand transfer	<70 µM
COc1ccc(-n2c(=O)c(O)c3n(c2=O)CCN(Cc2ccc(F)cc2)C3=O)cc1	strand transfer	<10 µM
O=C1c2c(O)c(=O)c(-c3cccnc3)cn2CCN1Cc1cccc(Cl)c1F	ELISA	0.01–0.1 µM
O=C1/C(=C/c2cc(O)c(O)c(O)c2)CSC/C1=C\c1cc(O)c(O)c(O)c1	disintegration	1.9 µM
Cc1ccc(-c2c([C@H](OC(C)(C)C)C(=O)O)c(C)nc3ccccc23)cc1C	strand transfer / fluorescence	0.0316 µM
CN(C)C(=O)C(=O)N(C)C1CN(C2CCCC2)CCn2c1nc(C(=O)NCc1ccc(F)cc1)c(O)c2=O	ELISA	<10 µM
CC(C)n1c(=O)c(O)c2n(c1=O)C[C@@H]1CC[C@H](c3ccccc3)N1C2=O	strand transfer	<10 µM
CN1C/C(=C\c2ccc(O)c(O)c2)C(=O)/C(=C/c2ccc(O)c(O)c2)C1	strand transfer	0.9 µM
CS(=O)(=O)Nc1cn2ccn(Cc3ccc(F)cc3)c(=O)c2c(O)c1=O	ELISA	<0.01 µM
O=C(/C=C(\O)C(=O)O)NCc1ccc([N+](=O)[O-])cc1	strand transfer	<70 µM
COc1ccc(-c2cn3ccn(Cc4cccc(Cl)c4)c(=O)c3c(O)c2=O)cc1	ELISA	<0.01 µM
O=C1/C(=C/c2cc(O)c(O)c(O)c2)CNC/C1=C\c1cc(O)c(O)c(O)c1	strand transfer	0.5 µM
Cc1cnc(CN2CCn3c(nc(C(=O)NCc4ccc(F)cc4)c(O)c3=O)C2(C)C)o1	ELISA	<10 µM
CC(=O)N(C)CCC1CN(Cc2ccc(F)cc2)C(=O)c2c(O)c(=O)n(C(C)C)c(=O)n21	strand transfer	<10 µM
CN(Cc1ccccc1Cc1ccccc1)C(=O)/C=C(\O)C(=O)O	strand transfer	<70 µM
CC(C)n1c(=O)c(O)c2n(c1=O)C(CCN1CCOCC1)CN(Cc1ccc(F)cc1)C2=O	strand transfer	<10 µM
O=c1c(S(=O)(=O)c2ccccc2)cn2ccn(Cc3cccc(Cl)c3)c(=O)c2c1O	ELISA	0.01–0.1 µM
CN(C)C1COCCn2c1nc(C(=O)NCc1ccc(F)cc1)c(O)c2=O	ELISA	<10 µM
O=C(/C=C(\O)C(=O)O)NCc1cccc(Cl)c1Cl	strand transfer	<70 µM
Cn1cnc(CN2CCn3c(nc(C(=O)NCc4ccc(F)cc4)c(O)c3=O)C2(C)C)n1	ELISA	<10 µM
Cc1cn(Cc2ccc(F)cc2)c(=O)c2c(O)c(=O)c(C(=O)C(C)(C)C)cn12	ELISA	0.01–0.1 µM
Cc1nc(CN2CCn3c(nc(C(=O)NCc4ccc(F)cc4)c(O)c3=O)C2(C)C)no1	ELISA	<10 µM
O=C(O)/C(O)=C/C(=O)N(Cc1ccc(F)cc1)Cc1ccco1	strand transfer	<70 µM
CC1(C)c2nc(C(=O)NCc3ccc(F)cc3)c(O)c(=O)n2CCN1CCN1CCOCC1	ELISA	<10 µM
CN1C/C(=C\c2ccc([N+](=O)[O-])c(O)c2)C(=O)/C(=C/c2ccc([N+](=O)[O-])c(O)c2)C1	strand transfer	>100 µM
Cn1cc(CN2CCn3c(nc(C(=O)NCc4ccc(F)cc4)c(O)c3=O)C2(C)C)nn1	ELISA	<10 µM
O=C(CCCCCNC(=O)/C(O)=C/C(=O)N(CCCc1ccccc1Cl)Cc1ccc(F)cc1)NS(=O)(=O)c1ccccc1	strand transfer	<70 µM